For orientation: inhibition means the relative decrease from the control value, in per cent.

By UniProt entry, the sequences of proteins in these tests, tags left out.
UniProt P15917, whole entry, looked up: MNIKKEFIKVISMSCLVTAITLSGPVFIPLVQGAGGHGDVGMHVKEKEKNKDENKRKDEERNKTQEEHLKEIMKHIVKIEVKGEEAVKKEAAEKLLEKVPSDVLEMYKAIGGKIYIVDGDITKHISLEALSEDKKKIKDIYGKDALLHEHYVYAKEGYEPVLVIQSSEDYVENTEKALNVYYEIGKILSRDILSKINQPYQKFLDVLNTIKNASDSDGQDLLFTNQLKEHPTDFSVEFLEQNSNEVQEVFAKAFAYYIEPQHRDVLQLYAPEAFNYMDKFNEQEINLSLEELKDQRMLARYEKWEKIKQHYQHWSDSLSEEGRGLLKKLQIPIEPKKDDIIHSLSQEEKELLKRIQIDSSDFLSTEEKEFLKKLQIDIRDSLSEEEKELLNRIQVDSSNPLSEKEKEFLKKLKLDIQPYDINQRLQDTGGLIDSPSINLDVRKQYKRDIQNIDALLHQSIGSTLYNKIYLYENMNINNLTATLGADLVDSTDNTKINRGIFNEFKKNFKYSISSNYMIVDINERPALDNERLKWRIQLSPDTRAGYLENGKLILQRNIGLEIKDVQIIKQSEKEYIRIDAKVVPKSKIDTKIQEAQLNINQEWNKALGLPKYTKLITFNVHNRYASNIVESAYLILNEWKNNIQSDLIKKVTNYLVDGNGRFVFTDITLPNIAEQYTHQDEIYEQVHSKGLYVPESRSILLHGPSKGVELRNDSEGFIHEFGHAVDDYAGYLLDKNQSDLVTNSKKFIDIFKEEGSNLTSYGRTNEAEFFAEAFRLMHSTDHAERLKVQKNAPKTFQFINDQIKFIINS

Only a part is listed here, and it is no random draw. The source made the active and inactive calls. Cut-off read from the data, not from the text of the source: active = inhibition above about 30%; inconclusive = no clear call, values can overlap the other calls; inactive = below that.

This passage reports inhibition results from PubChem BioAssay AID588501 (NMMLSC, 2011).

The target in the test is Lethal factor (Bacillus anthracis) (UniProt P15917). As to the kind of experiment: anthrax lethal factor cleavage blockers – biochemical, multiplex microsphere, MLPCN library, primary screen (AID 588501). Note: plate controls were buffer without enzyme for full effect and enzyme alone for no effect. The note with it: multiplex microsphere protease cleavage assay, LF; at 10 µM; hits give high values.
As to `c1nnnn1CCn1cnnn1`, the inhibition was inactive: -1.1%.

As to `CC(C)C(=O)NC(Sc1ccccc1)C(Cl)(Cl)Cl` (configuration not stated), the inhibition is inactive: 0.2%. In the case of `O=P(Nc1nccs1)(c1ccccc1)c1ccccc1`, the inhibition was inactive: -2.8%.

For `O=P(Nc1nc2ccccc2s1)(c1ccccc1)c1ccccc1`, the inhibition is inactive: 1.4%.

Regarding `C[C@H]1OP(=O)(Oc2ccccc2)[C@H](O)[C@H](O)[C@H]1N=[N+]=[N-]` (some centres not stated), the inhibition was inactive: -0.7%. Turning to `Nc1ccc(CCCCOc2ccccc2)cc1`, the inhibition was inactive: -10.3%. On to `COc1ccc(N)c([N+](=O)[O-])c1[N+](=O)[O-]`, for which the inhibition was inactive: -8.4%. With `O=P(Nc1ccccn1)(c1ccc(Br)cc1)c1ccc(Br)cc1`, the inhibition was inactive: -5.1%. The result for `Nc1ccc([As](=O)(O)c2ccc([N+](=O)[O-])cc2)cc1` reads inactive: -8%; that for `C(Cc1nn[nH]n1)Cc1nn[nH]n1`, inactive: 2.1%. To `O=C(OC1CN2CCC1CC2)c1cccc(Cl)c1` (configuration not stated) belongs inactive: 1.7%. To `O=[N+]([O-])c1ccc(O)c(/C=N/Nc2ccc([N+](=O)[O-])cc2[N+](=O)[O-])c1` belongs inactive: -1.2%. Take `CC(=O)NC(SC(=S)N(C)C)C(Cl)(Cl)Cl` (configuration not stated): the inhibition is inactive: -2.9%. `O=[N+]([O-])c1ncn(CCn2cnc([N+](=O)[O-])n2)n1`: the inhibition was inactive: 2.8%.

On to `O=[As](O)(c1ccccc1)c1ccc(O)cc1`, for which the inhibition is inactive: -12.1%. The result for `O=P1(N(CCCl)CCCl)OCCC2CCCCN21` (configuration not stated) reads inactive: -4.3%; that for `CCNC(=S)/N=C(\N)N[N+](=O)[O-]`, inactive: 3.1%; that for `O=C(NC1CCS(=O)(=O)C1)NP(=S)(Oc1ccccc1)Oc1ccccc1` (configuration not stated), inactive: 3.8%. Take `c1ccc(-c2nn[nH]n2)c(-c2nn[nH]n2)c1`: the inhibition was inactive: -3.3%. The result for `CC(NC(=O)COC(=O)C(O)(c1ccccc1)c1ccccc1)c1ccccc1` (configuration not stated) reads inactive: -0.3%; that for `CN(C)C(=O)Oc1noc2ccccc12`, inactive: 10.5%; that for `O=c1c2cc([N+](=O)[O-])ccc2[nH]c2c([N+](=O)[O-])cc([N+](=O)[O-])cc12`, inactive: -5%. As for `COC(=O)c1cc2c(s1)N=C(c1ccccc1)N(C)P2(=O)N1CCOCC1` (configuration not stated), the inhibition was inactive: 2.4%. Turning to `CC(=O)NC(SC(=S)N(CC(C)C)CC(C)C)C(Cl)(Cl)Cl` (configuration not stated), the inhibition is inactive: -1.7%. Regarding `Cc1ccc(OP(=O)(Nc2ccccn2)Oc2ccc(C)cc2)cc1`, the inhibition is inactive: -0.6%. The result for `O=C(OC1CN2CCC1CC2)c1ccccc1` (configuration not stated) reads inactive: -4.9%; that for `CCC(=O)N1C2C3N(C(=O)CC)C1C1N(C(=O)CC)C(C(N1C(=O)CC)N3C(=O)CC)N2C(=O)CC`, inactive: 0.5%; that for `CCc1cc(O)c([N+](=O)[O-])c(C)c1[N+](=O)[O-]`, inactive: -4.4%.

On to `CC(C)(C)C(=O)NC(Sc1ccccc1)C(Cl)(Cl)Cl` (configuration not stated), for which the inhibition was inactive: 1%.

Turning to `O=P1(Nc2nc3ccc(Cl)cc3s2)COc2ccccc2O1` (configuration not stated), the inhibition is inactive: 7.8%. To `CCOc1ccc(C2=NCC(CBr)S2)cc1` (configuration not stated) belongs inactive: -6.4%; to `CC(=O)Nc1ccc([As](=O)(O)O)c(O)c1`, inactive: -4.7%; to `CC(=O)Nc1ccc(Oc2c([N+](=O)[O-])cc([N+](=O)[O-])cc2[N+](=O)[O-])cc1`, inactive: -3.1%.

Take `N#C/C(=C\c1ccc(N(CCBr)CCBr)cc1)C(N)=O`: the inhibition is inactive: 2.6%. As for `CC(=O)c1ccc(N2CC2c2ccncc2)cc1` (configuration not stated), the inhibition is inactive: -6%.

For the compound `COC(=O)C1(C)COP(=O)(NCc2ccccc2)OC1` (configuration not stated), the inhibition is inactive: 0.7%. To `Cc1ccccc1CN(C)C(=O)COC(=O)C(O)(c1ccccc1)c1ccccc1` belongs inactive: 1%; to `C[C@@H]1C=CCP(=O)(Oc2ccccc2)O1` (some centres not stated), inactive: 0.9%. To `C[C@H]1OP(=O)(Oc2ccccc2)C[C@@H]2O[C@@H]21` (some centres not stated) belongs inactive: -7.6%; to `COc1ccccc1OP(=O)(Nc1ccc(C)cn1)Oc1ccccc1OC`, inactive: -1.8%; to `Cc1ccc(OP(=O)(Nc2nccs2)Oc2ccc(C)cc2)cc1`, inactive: -0.4%.

With `Clc1ccc(Cl)c(NC2=NCC(CBr)S2)c1` (configuration not stated), the inhibition was inactive: -4.1%.

On to `CN1CCCC(OC(=O)C(c2ccccc2)c2ccccc2)C1` (configuration not stated), for which the inhibition is inactive: 2.8%. The result for `NC(=O)c1cc([N+](=O)[O-])cc([N+](=O)[O-])c1N` reads inactive: -0.3%; that for `CN(C(=O)Cc1ccc(Cl)c(Cl)c1)[C@H]1CCCC[C@H]1N1CCCC1`, inactive: -4.3%; that for `Cc1ccc(N/C(=N/P(=O)(N2CCOCC2)N2CCOCC2)N2CCOCC2)cc1`, inactive: -6%. To `O=[N+]([O-])C1C(O)C(O)C([N+](=O)[O-])C(O)C1O` (configuration not stated) belongs inactive: -2.3%; to `CC(C)CC(=O)NC(Sc1ccc(Cl)cc1)C(Cl)(Cl)Cl` (configuration not stated), inactive: -2.5%. The result for `Nc1cc(N)c2nonc2c1[N+](=O)[O-]` reads inactive: 4.6%. For `Oc1ccccc1CNc1ccccn1`, the inhibition was inactive: 5.2%.

As for `O=C(NC(Sc1ccncn1)C(Cl)(Cl)Cl)c1ccccc1` (configuration not stated), the inhibition is inactive: -4%. The result for `CCOP(=O)(Nc1ccccc1)OCC` reads inactive: -0.2%; that for `Cc1cc(SC(NC(=O)c2ccc(F)cc2)C(Cl)(Cl)Cl)ncn1` (configuration not stated), inactive: -1.5%; that for `Cc1ccc(NP(=O)(Oc2ccccc2F)Oc2ccccc2F)nc1`, inactive: -2%. To `CN(C(=O)Cc1ccc(Cl)c(Cl)c1)[C@H]1CCCC[C@@H]1N1CCCC1` belongs inactive: -3.4%; to `O=C(O)c1ccccc1[As](=O)(O)O`, inactive: -7.4%.

Take `CC(=O)Nc1ccc([As](=O)(O)O)cc1`: the inhibition was inactive: -2.6%. The result for `CCCC1OP(N)(=O)OCC1CC` (configuration not stated) reads inactive: 0.8%.

Take `CN(C)P(=O)(N(C)C)n1c(Nc2ccccc2)nnc1-c1ccccc1`: the inhibition is inactive: -1.5%. To `O=P(Nc1nc2ccc(Cl)cc2s1)(c1ccccc1)c1ccccc1` belongs inactive: -3.7%; to `CCN(N=Nc1nonc1N)c1nonc1N`, inactive: 3.1%; to `Nc1cccc2ccc([As](=O)(O)O)cc12`, inactive: -2.4%.

`O=C(Nc1cc([As](=O)(O)O)ccc1O)c1ccccc1`: the inhibition was inactive: 8.4%. To `O=P1(N(CCCl)CCCl)OCCCS1` (configuration not stated) belongs inactive: -2.9%; to `O=[N+]([O-])c1cccc(NC2=NCC(CBr)S2)c1` (configuration not stated), inactive: -2.6%.

Take `COC(=O)C1(C)COP(=O)(Nc2ccccc2)OC1` (configuration not stated): the inhibition was inactive: -1.4%. As for `O=C(O)CNc1ccc([As](=O)(O)O)cc1`, the inhibition is inactive: -6.1%.
